Compound potency records, mixed from different reports. Data source: NIAID ChemDB in PubChem.

Shared fields: target-level tests; protein: CCR5; measure: IC50

An empty or dashed field is not shown. Rows are shuffled and stem from different studies. ICn is the concentration giving n% inhibition.

SMILES,changes,method,value
C/C=C\CN(C(=O)OCc1ccccc1)C1CCN(CCC(C)(CN(C)S(=O)(=O)c2ccccc2)c2ccccc2)CC1,-,radioligand binding / binding,0.004 µM
O=C(C1CCCCC1)N1C[C@H](CN2CCC(N(Cc3ccccc3)c3ccccn3)CC2)[C@@H](c2ccccc2)C1,-,radioligand binding / binding,<1 µM
CCN(C(=O)Cc1ccc(S(C)(=O)=O)cc1)C1CCN(CC[C@@H](c2ccc(OC)cc2)c2ccc(S(C)(=O)=O)cc2)CC1,-,radiometric,0.132 µM
CCN(C(=O)OCc1ccccc1)C1CCN(CC[C@](C)(CN(C)S(=O)(=O)c2ccccc2)c2ccccc2)CC1,-,radioligand binding / binding,0.0006 µM
CN(C[C@@H](CCN1CCC(c2ccccc2)(c2ccccc2)CC1)c1cccc(Cl)c1)S(=O)(=O)c1ccccc1,-,radioligand binding / binding,10 µM
CCN(C(=O)OCc1ccccc1)C1CCN(CC[C@](C)(CN(C)S(=O)(=O)c2ccccc2)c2ccccc2)CC1,CCR5-E283A,radiometric,>1 µM
CCOC(=O)N(CC1CCCCC1)C1CCN(CCC(CN(C)S(=O)(=O)c2ccccc2)c2ccccc2)CC1,-,radioligand binding / binding,0.04 µM
CCN(C(=O)Cc1ccc(S(C)(=O)=O)cc1)C1CCN(CC[C@H](c2ccc(S(C)(=O)=O)cc2)c2cccc(OC)c2)CC1,-,radiometric,0.025 µM
CN(C[C@@H](CCN1CCC2(CC1)CS(=O)c1ccccc12)c1cccc(Cl)c1)S(=O)(=O)c1ccccc1,-,radioligand binding / binding,0.01 µM
CCCN(C(=O)Nc1ccccc1)C1CCN(CCC(CN(C)S(=O)(=O)c2ccccc2)c2ccccc2)CC1,-,radioligand binding / binding,0.003 µM
CN(C[C@@H](CCN1CCC2(CC1)CS(=O)c1ccccc12)c1ccc(F)cc1)S(=O)(=O)c1ccccc1,-,radioligand binding / binding,0.67 µM
C=C(Cl)CN(C(=O)OCc1ccccc1)C1CCN(CCC(C)(CN(C)S(=O)(=O)c2ccccc2)c2ccccc2)CC1,-,radioligand binding / binding,0.005 µM
C/C=C(\C)[C@@H]1C=C[C@@H]2C[C@H](C)C[C@H](C)[C@H]2[C@@H]1/C(O)=C1/C(=O)N[C@H](C[C@](C)(O)C(=O)O)C1=O,-,radiometric,1.2 µM
CCN(C(=O)Cc1ccc(S(C)(=O)=O)cc1)C1CCN(CC[C@@H](c2ccccc2)c2ccc(S(C)(=O)=O)cc2)CC1,-,radiometric,0.00076 µM
CN(CC(C)(CCN1CCC(c2ccccc2)CC1)c1ccccc1)S(=O)(=O)c1ccccc1,-,radioligand binding / binding,0.042 µM
CN(CC(CCN1CCC2(CC1)CS(=O)c1ccccc12)C1CCCCC1)S(=O)(=O)c1ccccc1,-,radioligand binding / binding,<10 µM
O=C(C1CCCCC1)N1C[C@H](CN2CCC(c3ccccc3)CC2)[C@@H](c2ccccc2)C1,CCR5-D276A,radiometric,0.072 µM
CCCN(C(=O)OCc1ccc(-c2ccccc2)cc1)C1CCN(CCC(CN(C)S(=O)(=O)c2ccccc2)c2ccccc2)CC1,-,radioligand binding / binding,0.016 µM
Cc1cccc(C)c1C(=O)N1CCC(N2CCN([C@@H](C)c3ccc(S(=O)(=O)c4ccc5c(c4)OCO5)cc3)[C@@H](C)C2)CC1,-,binding / radiometric,0.05 µM
CN(CC(c1ccccc1)N1CCC2(CC1)CS(=O)(=O)c1ccccc12)S(=O)(=O)c1ccccc1,-,radioligand binding / binding,10 µM
CCN(C(=O)Cc1ccc(S(C)(=O)=O)cc1)C1CCN(CCC(c2ccccc2)c2ccc(S(C)(=O)=O)cc2)CC1,-,radiometric,0.0017 µM
CN(CCCCc1ccccc1)CC[C@H](CN(C)S(=O)(=O)c1ccccc1)c1cccc(Cl)c1,-,radioligand binding / binding,>10 µM
CN(CC(C)(CCN1CCC2(CC1)CS(=O)c1ccccc12)c1ccccc1)S(=O)(=O)c1ccccc1,-,radioligand binding / binding,0.022 µM
CN(CC(C)(CCN1CCC(N(CC(O)CO)C(=O)OCc2ccccc2)CC1)c1ccccc1)S(=O)(=O)c1ccccc1,-,radioligand binding / binding,0.009 µM
C=CCN(C(=O)OCc1ccc([N+](=O)[O-])cc1)C1CCN(CC[C@](C)(CN(C)S(=O)(=O)c2ccccc2)c2ccccc2)CC1,CCR5-E283A,radiometric,1 µM
CCN(C(=O)Cc1ccc(S(C)(=O)=O)cc1)C1CCN(CC[C@H](c2ccc(S(C)(=O)=O)cc2)c2cc(F)c(F)c(F)c2)CC1,-,radiometric,0.025 µM
CCc1cc(CCc2ccccc2)n(C2CCN(C[C@H]3CN([C@@H](C(=O)O)C4CCCCC4)C[C@@H]3c3ccccc3)CC2)n1,-,radiometric,<2 µM
CN(CC(CCN1CCC2(CC1)CS(=O)(=O)c1ccccc12)C1CCCCC1)S(=O)(=O)c1ccccc1,-,radioligand binding / binding,<10 µM
CC(CC(CN(C)S(=O)(=O)c1ccccc1)c1ccccc1)N1CCC(c2ccccc2)CC1,-,radioligand binding / binding,0.11 µM
CN(C[C@@H](CCc1ccc(-c2ccccc2)cn1)c1cccc(Cl)c1)S(=O)(=O)c1ccccc1,-,radioligand binding / binding,30 µM
CCN(C(=O)Cc1ccc(S(C)(=O)=O)cc1)C1CCN(CC[C@H](c2ccc(S(C)(=O)=O)cc2)c2cccc(C(C)C)c2)CC1,-,radiometric,0.11 µM
Cc1cc(-c2ccccc2)n(C2CCN(C[C@H]3CN([C@@H](C(=O)O)C4CCCCC4)C[C@@H]3c3ccccc3)CC2)n1,-,radiometric,<2 µM
CN(C[C@@H](CCN1CCC2(CC1)CSc1ccccc12)c1ccc2c(c1)OCO2)S(=O)(=O)c1ccccc1,-,radioligand binding / binding,0.7 µM
C#CCN(C(=O)OCc1ccccc1)C1CCN(CCC(C)(CN(C)S(=O)(=O)c2ccccc2)c2ccccc2)CC1,-,radioligand binding / binding,0.005 µM
CN(C[C@@H](CCN1CCC2(CC1)Cc1ccccc1C2=O)c1cccc(Cl)c1)S(=O)(=O)c1ccccc1,-,radioligand binding / binding,>1 µM
CCN(C(=O)OCc1ccccc1)C1CCN(CCC(COCC[Si](C)(C)C)(CN(C)S(=O)(=O)c2ccccc2)c2ccccc2)CC1,-,radioligand binding / binding,>0.1 µM

A second listing of 4 rows from above:

SMILES,changes,method,value
CCCN(C(=O)Nc1ccccc1)C1CCN(CCC(CN(C)S(=O)(=O)c2ccccc2)c2ccccc2)CC1,-,radioligand binding / binding,0.003 µM
CN(CC(C)(CCN1CCC(c2ccccc2)CC1)c1ccccc1)S(=O)(=O)c1ccccc1,-,radioligand binding / binding,0.042 µM
CN(C[C@@H](CCN1CCC2(CC1)CS(=O)c1ccccc12)c1ccc(F)cc1)S(=O)(=O)c1ccccc1,-,radioligand binding / binding,0.67 µM
CCc1cc(CCc2ccccc2)n(C2CCN(C[C@H]3CN([C@@H](C(=O)O)C4CCCCC4)C[C@@H]3c3ccccc3)CC2)n1,-,radiometric,<2 µM